Earlier results as cited in paper PMC5247677 (Scientific Reports, 2017).

Test system: NaV isoforms
Conditions: cited from earlier work

Molecule: Cn1nccc1-c1ccccc1Oc1ccc(S(=O)(=O)Nc2nccs2)cc1C#N [PF-04856264]
- selectivity for NaV1.7 (slow inactivated state): at least 65 fold

Molecule: Nc1[nH]ncc1-c1cc(Cl)ccc1Oc1cc(F)c(S(=O)(=O)Nc2cscn2)cc1Cl [PF-05089771]
- selectivity for NaV1.7: at least 10 fold

Molecule: ProTx-II: NaV1.7 selective spider peptide from the venom of Thrixopelma pruriens
- selectivity for NaV1.7 over NaV1.2–NaV1.8: at least 85 fold
